Anti-infective test results gathered from many reports (values: NIAID ChemDB through PubChem).

Shared fields: whole-cell or culture tests; species: Hepatitis C virus; method: replicon; measure: EC50

ECn: concentration that inhibits the pathogen or its effect by n%. a–b is a range or a potency band. Neighbouring rows are from separate reports. An empty or dashed field is not shown.

| SMILES | strain | cells | result |
|---|---|---|---|
| CNC(=O)c1c(-c2ccc(F)cc2)oc2cc(CNS(C)(=O)=O)c(OC(C)C)cc12 |  | Huh7 | <10 µM |
| O=C(Cc1ccccc1)N/N=C/c1ccccc1OS(=O)(=O)c1ccccc1Br |  | Huh7 | >50 µM |
| CC(C)S(=O)(=O)NC(=O)c1c(-c2ccc[nH]c2=O)c2c3occc3c(F)cc2n1Cc1csc(C(N)=O)c1 |  |  | <0.5 µM |
| NC(=O)COc1ccc2c(c1)S(=O)(=O)N=C(c1c(O)c3cc(F)ccc3n(CCC3CC3)c1=O)N2 | 1b Con1 |  | 0.0037 µM |
| NS(=O)(=O)c1ccc(CNc2nc(NCC(F)(F)F)c3nc(-c4ccc(NC(=O)C5(O)CC5)cc4)ccc3n2)cc1 |  |  | <0.1 µM |
| CN1CCN(C(=O)C2Cc3ccccc3-c3c(C4CCCCC4)c4ccc(C(=O)O)cc4n3C2)CC1 |  | Huh7 | 0.01–1 µM |
| CNC(=O)c1c(-c2ccc(F)cc2)oc2cc(-c3n[nH]c(C)n3)c(OC)cc12 |  | Huh7 | <10 µM |
| CCOc1nc(N)nc2ccc(-c3ncc(N)s3)nc12 |  | Huh7 | <0.3 µM |
| CS(=O)(=O)NC(=O)c1c(-c2ccc[nH]c2=O)c2c3occc3c(F)cc2n1Cc1cc(C(N)=O)ccc1F |  |  | <0.5 µM |
| O=C1Cn2c(c(C3CCCCC3)c3ccc(C(=O)NS(=O)(=O)C4CC4)cc32)-c2ccccc2N1 |  | Huh7 | 0.01–1 µM |
| CCOc1nc(NCc2ccc(F)cc2)nc2ccc(-c3ccc(F)nc3)nc12 |  |  | <0.1 µM |
| COC(=O)/C=C\c1ccc(NC(=O)C2(NC(=O)c3ccc4c(C5CCCCC5)c5n(c4c3)CCCc3sc(C)nc3-5)CCCC2)cc1 |  | Huh7 | >10 µM |
| CNC(=O)c1c(-c2ccc(F)cc2)oc2cc(NS(C)(=O)=O)c(F)cc12 |  | Huh7 | <10 µM |
| COC(=O)/C=C/c1ccc(CN(C)S(=O)(=O)NC(=O)c2ccc3c(C4CCCCC4)c4n(c3c2)CC(=O)Nc2ccccc2-4)cc1 |  | Huh7 | 0.01–1 µM |
| COc1cc(CC(=O)N/N=C/c2ccccc2OS(=O)(=O)c2ccc(C(F)(F)F)cc2)cc(OC)c1OC |  | Huh7 | >50 µM |
| CC1CCC(C(=O)N(c2cc(-c3ccc(NC(=O)c4ccccn4)nc3)sc2C(=O)O)C(C)C)CC1 | 1a |  | <<0.5 µM |
| O=C(Cc1cncc(Br)c1)N/N=C/c1ccccc1OS(=O)(=O)c1ccc(C(F)(F)F)cc1 |  | Huh7 | <5 µM |
| CC1CCC(C(=O)N(CC2CC2)c2cc(-c3ccc(NC(=O)c4cn(C)cn4)cc3)sc2C(=O)O)CC1 | 1a |  | <0.5 µM |
| O=C(N/N=C/c1ccccc1OS(=O)(=O)c1ccc(C(F)(F)F)cc1)c1c(F)cccc1F |  | Huh7 | <5 µM |
| CC1CCC(C(=O)N(c2cc(-c3ccc(NC(=O)c4cccnn4)cc3)sc2C(=O)O)C2CCC2)CC1 | 1b |  | <0.5 µM |
| CN(C)C(=O)c1ccc2c(C3CCCCC3)c3n(c2c1)CC(C(=O)N1CCOCC1)=Cc1ccccc1-3 |  | Huh7 | 1–10 µM |
| COc1ccc(CC(=O)N/N=C/c2ccccc2OS(=O)(=O)c2ccc(C(F)(F)F)cc2)c(OC)c1 |  | Huh7 | <5 µM |
| CNC(=O)c1c(-c2ccc(F)cc2)oc2cc(-c3c(C)noc3COC)c(OC)cc12 |  | Huh7 | <1 µM |
| CC(Nc1nc(NCC(F)(F)F)c2nc(-c3ccc(F)cc3)ccc2n1)c1ccc(-n2cncn2)cc1 |  |  | <0.1 µM |
| CS(=O)(=O)NC(=O)c1c(-c2ccc[nH]c2=O)c2c3c(ccc2n1Cc1ccccc1F)CCO3 |  |  | <0.5 µM |
| CNC(=O)c1c(-c2ccc(F)cc2)oc2cc(N3CCOCC3)c(OC(F)F)cc12 |  | Huh7 | <1 µM |
| CN(C)S(=O)(=O)NC(=O)c1ccc2c(C3CCCCC3)c3n(c2c1)CCCc1ccccc1-3 |  | Huh7 | 0.01–1 µM |
| CCOc1nc(NCc2ccc(F)cc2)nc2ccc(-c3ccc(C(=O)NC(C)(C)CN4CCOCC4)cc3)nc12 |  |  | <0.1 µM |
| CNC(=O)c1c(-c2ccc(F)cc2)oc2cc(N3CCC3)c(OC(C)C)cc12 |  | Huh7 | <1 µM |
| Cc1ccc(Cn2c(C(=O)NS(C)(=O)=O)c(-c3ccc[nH]c3=O)c3c4occc4ccc32)c(C)c1 |  |  | <0.5 µM |
| CN(C)CCNC(=O)C1=Cc2ccccc2-c2c(C3CCCCC3)c3ccc(C(=O)O)cc3n2C1 |  | Huh7 | 0.01–1 µM |
| CS(=O)(=O)NC(=O)c1c(-c2ccc[nH]c2=O)c2c3occc3c(F)cc2n1Cc1cc2[nH]cnc2cc1Cl |  |  | <0.5 µM |
| CNC(=O)c1c(-c2ccc(F)cc2)oc2cc(N(C)S(C)(=O)=O)c(OC(C)C)cc12 |  | Huh7 | <1 µM |
| CC(C)N(C(=O)C1CCC(C)(F)CC1)c1cc(-c2ccc(NC(=O)c3cscn3)cc2)sc1C(=O)O | 1a |  | <0.5 µM |
| CCOc1nc(N)nc2ccc(-c3cccc(NS(=O)(=O)CC(F)(F)F)c3)nc12 |  | Huh7 | 0.3–1 µM |
| CC1CCC(C(=O)N(c2cc(-c3ccc(NC(=O)c4ccn(C)n4)cc3)sc2C(=O)O)C(C)C)CC1 | 1a |  | <0.5 µM |
| O=C(Cc1ccccc1)N/N=C/c1ccccc1OS(=O)(=O)c1cc(Cl)ccc1Cl |  | Huh7 | >50 µM |
| CCOc1nc(N)nc2ccc(-c3ccc(C(=O)NC4CC4)c(Cl)c3)nc12 |  | Huh7 | 0.3–1 µM |
| COc1cccc(CC(=O)N/N=C/c2ccccc2OS(=O)(=O)c2ccc(OC(C)C)cc2)c1 |  | Huh7 | <5 µM |
| NC(=O)c1cccc(Cn2c(C(=O)O)c(-c3ccc[nH]c3=O)c3c4occc4c(F)cc32)c1 |  |  | <0.5 µM |
| CC1CCC(C(=O)N(c2cc(-c3ccc(NC(=O)c4ccc(F)cc4)cc3)sc2C(=O)O)C(C)C)CC1 | 1b |  | <0.5 µM |
| O=C(NS(=O)(=O)C1CC1)c1c(-c2ccc[nH]c2=O)c2c3occc3ccc2n1Cc1cc(F)ccc1F |  |  | <0.5 µM |
| CCOc1nc(N)nc2ccc(-c3cccc(NS(=O)(=O)CC)c3)nc12 |  | Huh7 | <0.3 µM |
| CCC(C)(C)c1ccc(S(=O)(=O)Oc2ccccc2/C=N/NC(=O)Cc2cccc(OC)c2)cc1 |  | Huh7 | <5 µM |
| CC1CCC(C(=O)N(c2cc(-c3ccc(NC(=O)c4cscn4)cc3)sc2C(=O)[O-])C(C)C)CC1.[NH4+] | 1b |  | <0.5 µM |
| O=C(Cc1ccccc1)N/N=C/c1ccccc1OS(=O)(=O)c1ccc(F)c(F)c1 |  | Huh7 | 5–50 µM |
| CC1CCC(C(=O)N(c2cc(-c3ccc(NC(=O)c4nccn4C)cc3)sc2C(=O)O)C(C)C)CC1 | 1a |  | <0.5 µM |
| O=C(NS(=O)(=O)C1CC1)c1c(-c2ccc[nH]c2=O)c2c3occc3c(F)cc2n1Cc1cc2ccccc2nc1Cl |  |  | <0.5 µM |
| CCOc1nc(NCc2ccc(S(N)(=O)=O)cc2)nc2ccc(-c3ccc(NOC(C)(C)N)cc3)nc12 |  |  | <0.1 µM |
| CS(=O)(=O)NC(=O)c1c(-c2ccc[nH]c2=O)c2c3occ(Cl)c3ccc2n1Cc1ccccc1F |  |  | <0.5 µM |
| CC1CCC(C(=O)N(CC2CC2)c2cc(-c3ccc(NC(=O)c4cnccn4)cc3)sc2C(=O)O)CC1 | 1b |  | <0.5 µM |

For reference, 5 entries again:

SMILES	strain	cells	result
CCOc1nc(NCc2ccc(F)cc2)nc2ccc(-c3ccc(C(=O)NC(C)(C)CN4CCOCC4)cc3)nc12			<0.1 µM
CNC(=O)c1c(-c2ccc(F)cc2)oc2cc(-c3n[nH]c(C)n3)c(OC)cc12		Huh7	<10 µM
COc1cccc(CC(=O)N/N=C/c2ccccc2OS(=O)(=O)c2ccc(OC(C)C)cc2)c1		Huh7	<5 µM
NC(=O)COc1ccc2c(c1)S(=O)(=O)N=C(c1c(O)c3cc(F)ccc3n(CCC3CC3)c1=O)N2	1b Con1		0.0037 µM
CN(C)C(=O)c1ccc2c(C3CCCCC3)c3n(c2c1)CC(C(=O)N1CCOCC1)=Cc1ccccc1-3		Huh7	1–10 µM